Measurements from patent publication US11952365B2, “Anti-viral compounds” (Aligos Therapeutics, Inc., priority 2020, dated 2024).
Like-named read-outs stand apart in the source and are kept apart here.

Sequences of proteins named here, by UniProt entry; tags and fusion partners are left off. Residues count along the entry.
UniProt P03303, 1538-1719 limits assumed: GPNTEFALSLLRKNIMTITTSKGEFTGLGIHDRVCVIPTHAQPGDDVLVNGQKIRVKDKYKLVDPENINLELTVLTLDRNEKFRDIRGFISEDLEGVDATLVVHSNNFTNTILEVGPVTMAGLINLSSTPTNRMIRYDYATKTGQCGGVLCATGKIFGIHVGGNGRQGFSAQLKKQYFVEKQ

Experiments:
3CLpro = 3CLpro (Severe acute respiratory syndrome coronavirus 2, UniProt P0DTD1); assay: SARS-CoV-2 3CLpro protease assay (duplex, SAMDI-MS); assay type: biochemical
HRV3C = HRV3C (Human rhinovirus 14, UniProt P03303); assay: HRV3C protease assay (duplex, SAMDI-MS)
[1] = system: human beta-coronavirus OC43; assay: OC43 Coronavirus Assay in HeLa Cells; conditions: 6 days at 33° C.
[2] = system: SARS-CoV-2-GHB-03021/2020; assay: SARS-CoV-2 Infection Model in Huh7 Cells
[3] = system: SARS-CoV-2-GHB-03021/2020; assay: SARS-CoV-2 Infection Model in VeroE6 Cells; assay type: cell-based; conditions: read-out: VeroE6 + CP (EC50); Vero E6-eGFP cells with MDR1-inhibitor CP-100356 0.5 μM, 4 days p.i.; numeric bounds
[4] = read-out: SARS-Cov-2 IC50, 30 mins preincubation, class symbols
[5] = read-out: SARS-Cov-2 IC50, 30 mins preincubation, bound
[6] = read-out: HRV IC50, 30 mins preincubation, bound
[7] = read-out: Huh-7 (EC50), SARS-CoV-2, day 4 p.i., MTS, numeric bounds
[8] = read-out: Huh-7 (EC50), SARS-CoV-2, day 4 p.i., MTS, class symbols

| Structure (SMILES) | IC50 (3CLpro; [4]) [µM] | IC50 (HRV3C; read-out: HRV IC50, 30 mins preincubation, class symbols) [µM] | EC50 ([1]; class symbols) [µM] | IC50 (3CLpro; [5]) [µM] | IC50 (HRV3C; [6]) [µM] | EC50 ([1]; bound) [µM] | EC50 [2, 7] [µM] | EC50 [3] [µM] | EC50 [2, 8] [µM] |
| --- | --- | --- | --- | --- | --- | --- | --- | --- | --- |
| COc1cccc2[nH]c(C(=O)N3CC4CCCC4C3C(=O)NC(C=O)CC3CCNC3=O)cc12 (stereo not drawn) | 0.2 to 2 | 0.2 to 2 | 1 to 10 | – | – | – | – | – | – |
| COc1cccc2[nH]c(C(=O)N3C[C@@H]4CCC[C@@H]4[C@H]3C(=O)N[C@@H](C[C@H]3CC(C)(C)NC3=O)C(=O)COCc3ccccc3)cc12 | – | – | – | > 10 | > 10 | > 10 | > 50 | > 50 | – |
| COc1cccc2[nH]c(C(=O)N3C[C@@H]4CCC[C@@H]4[C@H]3C(=O)N[C@@H](C[C@@H]3CCNC3=O)C(=O)C3CCCO3)cc12 (single isomer, unassigned) [69_A] | 0.2 to 2 | – | 1 to 10 | – | > 10 | – | – | – | 10 to 100 |
| COc1cccc2[nH]c(C(=O)N3C[C@@H]4CCC[C@@H]4[C@H]3C(=O)N[C@@H](C[C@@H]3CCNC3=O)C(=O)C3CCCO3)cc12 (single isomer, unassigned) [69_B] | – | – | 10 to 100 | > 10 | > 10 | – | > 100 | – | – |
| COc1cccc2[nH]c(C(=O)N3C[C@@H]4CCC[C@@H]4[C@H]3C(=O)N[C@@H](C[C@@H]3CCNC3=O)C(=O)C(=O)N(C)Cc3ccccc3)cc12 [109B] | 0.2 to 2 | – | 1 to 10 | – | > 10 | – | – | – | 10 to 100 |
| COc1cccc2[nH]c(C(=O)N3C[C@@H]4CCC[C@@H]4[C@H]3C(=O)N[C@@H](C[C@@H]3CCNC3=O)C(=O)C(=O)N(C)Cc3ccccc3)cc12 [Compound 109A] | 2 to 20 | – | 1 to 10 | – | > 10 | – | > 50 | – | – |
